Results from PubChem BioAssay AID720641 (ICCB-Longwood Screening Facility, Harvard Medical School, 2013).
Only a part is listed here, and it is no random draw. Calls of active or inactive are those of the source.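 Rule for the calls: active = relative growth at most 50% at the other temperature and 20+ points below 30 °C, or under 10% at both; inactive = the rest, inconclusive results apart.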

Assay: S. aureus growth inhibition at 42 and 30 °C, primary screen, LtaS inhibitor project, RN4220, two temperatures (AID 720641)
Details: OD600, 20 h, 42 °C, active compounds read low

| Compound | relative growth |
| --- | --- |
| CN(C)C1(CNC(=O)c2ccc(C(C)(C)C)cc2)CCCCC1 | inactive: 95.2% |
| CC1CN(Cc2ccccc2)CCC1=O (configuration not stated) | inactive: 107% |
| CCN1CCC(Nc2ccc(F)cc2)CC1 | inactive: 99.9% |
| CC1CN(C)C(C)CC1Nc1ccccc1 (configuration not stated) | inactive: 109% |
| Cc1ccccc1C(=O)NCC1(N(C)C)CCCCC1 | inactive: 103% |
| CC1CN(CCc2ccccc2)C(C)CC1=O (configuration not stated) | inactive: 106% |
| CN(C)c1ccc(C(=O)NCC2(N3CCCCC3)CCCCC2)cc1 | inactive: 93.3% |
| CC(C)(C)c1ccc(C(=O)NCC2(N3CCOCC3)CCCCC2)cc1 | inactive: 102% |
| CCOc1ncccc1C(=O)NCC1(N(C)C)CCCCC1 | inactive: 105% |
| COc1cc(C(=O)NCC2(N3CCOCC3)CCCCC2)cc(OC)c1OC | inactive: 105% |
| O=C(NCC1(N2CCCCC2)CCCCC1)c1n[nH]c2ccccc12 | inactive: 93.3% |
| CCOc1ncccc1C(=O)NCC1(N2CCCCC2)CCCCC1 | inactive: 77.5% |
| NC(=O)C1(Nc2ccccc2)CCN(Cc2ccccc2)CC1 | inactive: 86.7% |
| O=C1CCN(CCc2ccccc2)CC1 | inactive: 89% |
| CN1CCC(Nc2ccc(F)cc2)CC1 | inactive: 85.8% |
| O=C(NCC1(N2CCOCC2)CCCCC1)c1ccccc1[N+](=O)[O-] | inactive: 106% |
| O=C(NCC1(N2CCOCC2)CCCCC1)c1ccc([N+](=O)[O-])cc1 | inactive: 118% |
| O=C(NCC1(N2CCOCC2)CCCCC1)c1cc2ccccc2cc1O | inactive: 109% |
| O=C(NCC1(N2CCOCC2)CCCCC1)c1ccccc1 | inactive: 103% |
| CCCN1CCC(Nc2cc(OC)cc(OC)c2)CC1 | inactive: 89.6% |
| Cc1c(C(=O)NCC2(N3CCOCC3)CCCCC2)oc2c(Cl)cccc12 | inactive: 91.4% |

| Compound | relative growth |
| --- | --- |
| Cn1nc(C(=O)NCC2(N3CCCCC3)CCCCC2)c2ccccc2c1=O | inactive: 88% |
| CC(C)(C)OC(=O)N1CCC(Nc2ccc(OC(F)(F)F)cc2)CC1 | inactive: 103% |
| CCOc1ccc(C(=O)NCC2(N3CCOCC3)CCCCC2)cc1 | inactive: 111% |
| CCCOc1cccc(C(=O)NCC2(N3CCOCC3)CCCCC2)c1 | inactive: 96.7% |
| FC(F)(F)Oc1ccc(NC2CCNCC2)cc1 | inactive: 116% |
| NC(=O)C1(Nc2ccc(F)cc2)CCNCC1 | inactive: 94.3% |
| c1ccc(CN2CCC(Nc3ccc4c(c3)OCO4)CC2)cc1 | inactive: 83.8% |
| O=C(NCC1(N2CCOCC2)CCCCC1)c1ccccc1Br | inactive: 107% |
| Cc1ccc(C(=O)NCC2(N(C)C)CCCCC2)o1 | inactive: 96.8% |
| CCCCOc1ccccc1C(=O)NCC1(N2CCOCC2)CCCCC1 | inactive: 100% |
| CCCN1CCC(Nc2ccc(OC)c(OC)c2)CC1 | inactive: 78.8% |
| COc1ccc(C(=O)NCC2(N3CCCCC3)CCCCC2)cc1 | inactive: 88.3% |
| Cc1ccccc1NC1CC(C)(C)NC(C)(C)C1 | inactive: 92.2% |
| CC1CN(CCc2ccccc2)CCC1=O (configuration not stated) | inactive: 87.6% |
| N#CC1(Nc2ccccc2)CCN(Cc2ccccc2)CC1 | inactive: 98.4% |
| O=C1CCN(Cc2ccccc2)CC1 | inactive: 102% |
| O=C(NCC1(N2CCOCC2)CCCCC1)c1ccc2nc[nH]c2c1 | inactive: 102% |
| O=C(NCC1(N2CCOCC2)CCCCC1)c1ccc(Cl)cc1 | inactive: 91.6% |
| COc1ccccc1C(=O)NCC1(N2CCOCC2)CCCCC1 | inactive: 113% |
| CCOC(=O)N1CCC(Nc2ccc(F)cc2)CC1 | inactive: 108% |
| CCOC(=O)N1CCC(Nc2cccc(C)c2)CC1 | inactive: 98.4% |
